Results of unrelated studies side by side (data: NIAID ChemDB).

Shared fields: growth or infection tests; organism: Herpes simplex virus 2; cells: VERO; read-out: EC50

Blank or dashed fields: not listed here. Rows are shuffled and stem from different studies. ECn: concentration that inhibits the pathogen or its effect by n%. Two numbers with a dash give a range or band.

smiles | strain or isolate | method | value
CCCCCCCCCCCC(=O)OCC(CO[C@@H]1O[C@H](CO)[C@H](O)[C@H](O)[C@H]1O)OC(=O)CCCCCCCCCCC | 186 | plaque count | 50 µg/mL
Nc1nc2c(ncn2CC[C@H](O)CO)c(=O)[nH]1 | 91075 | plaque count | 20 µM
Nc1nc2c(ncn2CC(CO)CCO)c(=O)[nH]1 | 91075 (acyclovir-resistant) | plaque count | ≥250 µM
Nc1nc(=O)n([C@@H]2O[C@H](CO)[C@@H](O)[C@@H]2F)cc1I | Lovelace MS | plaque count | 0.9 µM
O=c1ccn(C[C@H]2C[C@H]2[C@H](O)CO)c(=O)[nH]1 |  |  | >50 µM
Cn1cc(C(=O)NCc2ccc(Cl)cc2)c(=O)c2cc(/C=C\CO)cc(F)c21 | 186-M1 | plaque count | >20 µM
Fc1cccc(-c2cc3ccccn3c2)c1 | 186 | plaque count | >100 µM
Nc1nc2c(ncn2CCCC(CO)CO)c(=O)[nH]1 | B4327 | plaque count | 7 µM
Nc1nc2c(ncn2COCCO)c(=O)[nH]1 | 91075 | plaque count | 0.5 µM
Cc1cn(C[C@H]2C[C@H]2[C@H](O)CO)c(=O)[nH]c1=O |  |  | >50 µM
Nc1nc2c(ncn2COCCO)c(=O)[nH]1 | MS | plaque count | 2.4 µM
Nc1nc(=O)n([C@@H]2O[C@H](CO)[C@@H](O)[C@@H]2F)cc1I | G-FIAC-C1 | plaque count | 21 µM
Nc1c(-c2ccccc2)c(-c2ccccc2)n(COCCO)c1-c1ccccc1 |  | plaque count | >42 µM
CC/C=C/C/C=C/C/C=C/CCCCCCCC(=O)OCC(CO[C@@H]1O[C@H](CO)[C@@H](O)[C@H](O)[C@H]1O)OC(=O)CCCCCCC/C=C/C/C=C/C/C=C/CC | 186 | plaque count | <50 µg/mL
Nc1nc2c(ncn2CCC(CO)CO)c(=O)[nH]1 |  | cytopathic effect | 0.1–1 µM
Brc1sccc1-c1cc2ccccn2c1 | 186 | plaque count | >100 µM
Nc1ncnc2c1ncn2C[C@H]1C[C@H]1CO |  |  | >50 µM
Clc1cccn2cc(-c3ccccc3)cc12 | 186 | plaque count | >100 µM
CCCCC/C=C\C/C=C\CCCCCCCC(=O)OCC(CO[C@@H]1O[C@H](CO)[C@H](O)[C@H](O)[C@H]1O)OC(=O)CCCCCCC/C=C\C/C=C\CCCCC | 186 | plaque count | 50 µg/mL
Cn1cc(C(=O)NCc2ccc(Cl)cc2)c(=O)c2cc(CN3CCOCC3)ccc21 |  | plaque count | 3.4 µM
Nc1nc2c(ncn2C=C2CC2CO)c(=O)[nH]1 |  | cytopathic effect | >100 µM
N#Cc1ccn2cc(-c3ccccc3)cc2c1 | 186 | plaque count | >100 µM
CCOC(=O)c1c(Br)c(-c2ccccc2)n(COCCOC(C)=O)c1-c1ccccc1 |  | plaque count | >47 µM
CCCn1cc2c(O)cnc-2c2ccc(-c3ccncc3)cc21 |  | plaque count | >100 µg/mL
CC(=O)OCCOCn1c(-c2ccccc2)c(Br)c(-c2ccccc2)c1-c1ccccc1 |  | plaque count | >16 µM
Brc1ccc(-c2cc3ccccn3c2)cc1 | 186 | plaque count | >100 µM
CCCn1cc2c(=O)n(C)nc-2c2ccc(-c3ccncc3)cc21 |  | plaque count | >3.1 µg/mL
O=C(O[C@@H]1[C@@H](c2c(O)cc(O)c3c2O[C@H](c2cc(O)c(O)c(O)c2)[C@H](OC(=O)c2cc(O)c(O)c(O)c2)C3)c2c(O)cc(O)cc2O[C@@H]1c1cc(O)c(O)c(O)c1)c1cc(O)c(O)c(O)c1 | 196 | XTT | 7.2 µM
NC1=NC2C(C=CN2CC(CO)CCO)C(=O)N1 |  | cytopathic effect | 0.01–0.1 µM
Cc1cc(C)n2cc(-c3ccccc3)cc2c1 | 186 | plaque count | >100 µM
O=c1ccn([C@@H]2O[C@H](CO)[C@@H](O)[C@@H]2F)c(=O)[nH]1 | G-FIAC-C1 | plaque count | 3.5 µM
N#Cc1c(N)c(-c2ccccc2)n(COCCO)c1-c1ccccc1 |  | plaque count | >300 µM
Cc1cn([C@@H]2O[C@H](CO)[C@@H](O)[C@@H]2F)c(=O)[nH]c1=O | G | plaque count | 0.033 µM
CCCCCCCCCCCC(=O)OCC(CO[C@@H]1O[C@H](CO)[C@@H](O)[C@H](O)[C@H]1O)OC(=O)CCCCCCCCCCC | 186 | plaque count | 50 µg/mL
Nc1ncnc2c1ncn2[C@@H]1C[C@H](CO)[C@@H](O)[C@@H]1O | G-FAC-C1 | plaque count | 48 µM
CCCCCCOC(=O)c1ccc2cc(-c3ccccc3)cn2c1 | 186 | plaque count | >100 µM
O=c1[nH]c(=O)n([C@H]2C[C@H](O)[C@@H](CO)O2)cc1I | MS | plaque count | 5 µM
Fc1cccn2cc(-c3ccccc3)cc12 | 186 | plaque count | >100 µM
CCOC(=O)c1c([N+](=O)[O-])c(-c2ccccc2)n(COCCO)c1C |  | plaque count | >300 µM
O=c1ccn(C[C@H]2C[C@H]2CO)c(=O)[nH]1 |  |  | >50 µM

Repeating the final 3 entries:

smiles,strain or isolate,method,value
Fc1cccn2cc(-c3ccccc3)cc12,186,plaque count,>100 µM
CCOC(=O)c1c([N+](=O)[O-])c(-c2ccccc2)n(COCCO)c1C,,plaque count,>300 µM
O=c1ccn(C[C@H]2C[C@H]2CO)c(=O)[nH]1,,,>50 µM